# Measurements as given in publication PMC7331731, “Activity of vitamin D receptor agonists against dengue virus” (Scientific Reports, 2020).
# Test system: DENV 2
# Assay: DENV 2 virus titer in supernatant by standard plaque assay (infected HEK293T/17 cells)
# Type: cell-based, dengue virus
# Details: CC50/EC50, HEK293T/17 cells
# Method: Human embryonic kidney HEK293T/17 (ATCC No. CRL-11268) and human hepatocellular HepG2 (ATCC No. HB-8065) cells were cultured in complete medium, composed of Dulbecco’s modified Eagle medium (DMEM; Gibco BRL) supplemented with 10% heat-inactivated fetal bovine serum (FBS) at 37 °C with 5% CO2. Dengue virus serotype 2 (DENV 2) strain 16681, DENV 1 (strain 16007), DENV 3 (strain 16562), DENV 4 (strain 1036), ZIKV (strain SV0010/15) and JEV (strain BJ1) were all propagated in the Aedes albopictus cell line C6/36 (ATCC No. CRL-1660). Viral progenies in the supernatant were collected and centrifuged at 1,000g to remove cell debris. The virus stocks were kept at − 80 °C until used. Virus titers were determined by standard plaque assay on LLC-MK2 cells (ATCC No. CCL-7).
# HEK293T/17 cells were cultured on 6-well plates until 70% confluence was reached under standard conditions. The cells were mock-infected or infected with DENV 2 at a multiplicity (MOI) of 5 for 2 h. After infection, the medium was removed and the infected cells were incubated with appropriate concentrations of the VDR agonists until 24 h.p.i., in parallel with DMSO treated control cells. Experiments were performed independently triplicate.
# For time course experiments, under conditions of pre-infection treatment, HEK293T/17 cells were pre-treated with an appropriate concentration of VDR agonists for 1, 3 or 6 h before infection, followed by incubation in complete medium. For treatment post-infection, infected cells were treated with VDR agonists at 0, 1, 3, 6 and 12 h.p.i. The infected cells and supernatant for both pre- and post-treated samples were collected at 24 h.p.i. Experiments were performed independently triplicate.
row,SMILES,Selective index (SI)
1,CSCCC(NC(=O)OC(C)(C)C)C(=O)Nc1ccc(C2N(c3ccc([N+](=O)[O-])cc3)C(=O)C3CCCN32)cc1 (stereo not shown) [ZD-4],15.53
2,COc1cc(C2N(c3ccc([N+](=O)[O-])cc3)C(=O)C3CCCN32)ccc1O (stereo not shown) [ZD-2],26.65
3,COc1ccc(CC2N(c3ccc([N+](=O)[O-])cc3)C(=O)C3CCCN32)cc1OC (stereo not shown) [ZD-5],51.84
4,O=C1C2CCCN2C(c2ccco2)N1c1ccc([N+](=O)[O-])cc1 (stereo not shown) [ZD-1],29.71
5,O=C1C2CCCN2C(c2ccc(O)cc2)N1c1ccc([N+](=O)[O-])cc1 (stereo not shown) [ZD-6],24.46
6,CSCCC(NC(=O)OC(C)(C)C)C(=O)Oc1ccc(C2N(c3ccc([N+](=O)[O-])cc3)C(=O)C3CCCN32)cc1 (stereo not shown) [ZD-20],5.98
7,CSCCC(N)C(=O)Oc1ccc(C2N(c3ccc([N+](=O)[O-])cc3)C(=O)C3CCCN32)cc1.Cl (stereo not shown) [ZD-3],52.75
